Laboratory results published in patent US20230357367A1 (GENERATE BIOMEDICINES, published 2023).

B1: Reference Antibody (antibody, V domains shown)
VH: EVQLVESGAEVKKPGESLKISCKGSGYTFTRYWIGWVRQMPGKGLEWMGIIYPGDSDTRYSPSFQGHVTISADKSISTAYLQWNSLKASDTAMYYCARLPQYCSNGVCQRWFDPWGQGTLVTVSS
VL: EIVLTQSPSSVSASVGDRVTITCRASQGISSWLAWYQQKPGKAPKLLIYAASSLQSGVPSRFSGSGSGTDFTLTISSLQPEDFATYYCQQGNSFPYTFGQGTNLEIK
B2: Reference Antibody Fab (Fab, V domains shown)
VH: B1 VH
VL: B1 VL

Legend:
[1] = target: T1, SARS-CoV-2 BA.2+P1162L spike trimer (recombinant, in-house production) (SARS-CoV-2); assay: DELFIA, IgG titrated on coated spike trimer
[2] = target: T2, SARS-CoV-2 BA.2+P1162S spike trimer (recombinant, in-house production) (SARS-CoV-2); assay: DELFIA, IgG titrated on coated spike trimer
[3] = target: T1, SARS-CoV-2 BA.2+P1162L spike trimer …; assay: SPR, Fab over anti-His-captured trimer, 37 C
[4] = target: T2, SARS-CoV-2 BA.2+P1162S spike trimer …; assay: SPR, Fab over anti-His-captured trimer, 37 C
[5] = target: T1, SARS-CoV-2 BA.2+P1162L spike trimer …; assay: SPR, Fab over anti-His-captured trimer, 25 C
[6] = target: T2, SARS-CoV-2 BA.2+P1162S spike trimer …; assay: SPR, Fab over anti-His-captured trimer, 25 C

Binder | EC50 [1] | EC50 [2] | Kd [3] | Kd [4] | Kd [5] | Kd [6]
B1 | 0.067 µg/mL | 0.059 µg/mL |  |  |  | 
B2 |  |  | 201 nM | 150 nM | 113 nM | 78 nM
